Source: patent US20100055761A1 (GENERAL HOSPITAL, published 2010)
“And” between values parts separate entries of the source, which are not always exact repeats. Identical values can stand only once.

T1: CD5 (human, UniProt P06127 25-495)
T1 sequence: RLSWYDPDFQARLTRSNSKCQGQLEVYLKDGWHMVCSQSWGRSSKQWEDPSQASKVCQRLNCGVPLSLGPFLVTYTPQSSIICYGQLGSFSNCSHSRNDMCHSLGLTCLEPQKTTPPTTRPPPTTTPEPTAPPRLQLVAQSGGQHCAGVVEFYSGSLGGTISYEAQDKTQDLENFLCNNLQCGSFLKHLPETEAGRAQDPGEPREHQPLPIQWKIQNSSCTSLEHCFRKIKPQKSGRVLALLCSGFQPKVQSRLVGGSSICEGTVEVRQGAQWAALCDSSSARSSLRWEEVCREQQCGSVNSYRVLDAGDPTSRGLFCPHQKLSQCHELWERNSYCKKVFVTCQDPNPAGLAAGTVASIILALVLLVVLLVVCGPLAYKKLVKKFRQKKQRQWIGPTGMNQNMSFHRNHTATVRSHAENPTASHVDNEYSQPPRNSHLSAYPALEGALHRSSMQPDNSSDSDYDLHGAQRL


Assays:
[1] = molecular target: CD5, human, P06127 25-495; assay: cell-based or functional assay
CD5 = molecular target: T1, CD5; assay: cell-based or functional assay

Row | Molecule | EC50, cytotoxicity to CD5^+Raji cells in the presence of GrB-anti-CD19 [1] [nM] | EC50, cytotoxicity (MTS assay) to CD5^+Raji cells with 2 nM GrB-anti-CD19 (CD5) | EC50, cytotoxicity (MTS assay) to CD19^+Jurkat cells with 2 nM GrB-anti-CD19 (CD5) [nM] | estimated EC50, cytotoxicity to CD5^+JVM3 cells with 2 nM GrB-anti-CD19 (CD5) [nM] | estimated EC50, cytotoxicity to Jeko-1 cells with 2 nM GrB-anti-CD19 (CD5) [nM]
1 | anti-CD5-VCE fusion protein bearing a granzyme B cleavage site | 1.3 | – | – | – | –
2 | SortaseA conjugated anti-CD5-aerolysinGrB (scFv) ANIQLVQSGPELKKPGETVKISCKASGYTFTNYGMNWVKQAPGKGLRWMGWINTHTGEPTYADDFKGRFAFSLETSASTAYLQINNLKNEDTATYFCTRRGYDWYFDVWGAGTTVTVFSGGGGSGGGGSGGGSSDIKMTQSPSSMYASLGERVTITCKASQDINSYLSWFHHKPGKSPKTLIYRANRLVDGVPSRFSGSGSGQDYSLTISSLDYEDMGIYYCQQYDESPWTFGGGTKLEMRLERPHGGGSLPETGKGGSNSAASGEIPTLSALDIPDGDEVDVQWRLVHDSANFIKPTSYLAHYLGYAWVGGNHSQYVGEDMDVTRDGDGWVIRGNNDGGCDGYRCGDKTSIKVSNFAYNLDPDSFKHGDVTQSDRQLVKTVVGWAINDSDTPQSGYDVTLRYDTATNWSKTNTYGLSEKVTTKNKFKWPLVGETELSIEIAANQSWASQNGGSTTTSLSQSVRPTVPAHSKIPVKIELYKADISYPYEFKADVSYDLTLSGFLRWGGNAWYTHPDNRPNWNHTFVIGPYKDKASSIRYQWDKRYIPGEVKWWDWNWTIQQNGLPTMQNNLARVLRPVRAGITGDFSAESQFAGNIEIGAPVPVAAESKGIEPDSGVEGAGQGLRLEIPLDAQELSGLGFNNVSLSVTPAANQVEHHHHHH | – | ~0.3 nM and ~0.4 nM | ~6.5 | 2.1 | 22.4
